# Laboratory results published in ChEMBL document CHEMBL5346973 (J Med Chem, 2023).
# Protein sequences, listed by entry. Tags and fused reporters are not part of them. Lines headed by an entry give the natural chain unless they say otherwise; changes in a name come on top.
# UniProt P43144: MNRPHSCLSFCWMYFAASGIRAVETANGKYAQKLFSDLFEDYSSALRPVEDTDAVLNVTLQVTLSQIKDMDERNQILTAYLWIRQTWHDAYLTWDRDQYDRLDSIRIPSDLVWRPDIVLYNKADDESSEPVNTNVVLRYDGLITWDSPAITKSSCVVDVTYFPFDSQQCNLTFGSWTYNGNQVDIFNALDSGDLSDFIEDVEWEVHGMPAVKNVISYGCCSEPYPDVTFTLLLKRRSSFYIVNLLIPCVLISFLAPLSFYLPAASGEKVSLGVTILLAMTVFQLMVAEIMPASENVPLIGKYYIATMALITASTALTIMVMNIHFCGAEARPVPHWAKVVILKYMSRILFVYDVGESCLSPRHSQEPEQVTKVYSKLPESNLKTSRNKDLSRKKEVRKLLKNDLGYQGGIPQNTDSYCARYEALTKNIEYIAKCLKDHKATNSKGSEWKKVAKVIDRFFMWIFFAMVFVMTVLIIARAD
# UniProt Q9JLB5: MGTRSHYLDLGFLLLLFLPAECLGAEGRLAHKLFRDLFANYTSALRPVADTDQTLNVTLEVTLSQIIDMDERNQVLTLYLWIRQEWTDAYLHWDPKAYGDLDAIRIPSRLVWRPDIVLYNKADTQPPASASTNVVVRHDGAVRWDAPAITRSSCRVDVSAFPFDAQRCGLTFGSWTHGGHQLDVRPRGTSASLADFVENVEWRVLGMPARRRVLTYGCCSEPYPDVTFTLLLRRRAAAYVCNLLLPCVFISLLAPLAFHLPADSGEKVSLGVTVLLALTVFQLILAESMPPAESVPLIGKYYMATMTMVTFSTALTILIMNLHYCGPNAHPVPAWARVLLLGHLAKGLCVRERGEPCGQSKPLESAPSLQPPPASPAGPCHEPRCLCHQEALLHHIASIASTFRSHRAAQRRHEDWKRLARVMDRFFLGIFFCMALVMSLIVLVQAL
# UniProt Q05941, whole entry, looked up: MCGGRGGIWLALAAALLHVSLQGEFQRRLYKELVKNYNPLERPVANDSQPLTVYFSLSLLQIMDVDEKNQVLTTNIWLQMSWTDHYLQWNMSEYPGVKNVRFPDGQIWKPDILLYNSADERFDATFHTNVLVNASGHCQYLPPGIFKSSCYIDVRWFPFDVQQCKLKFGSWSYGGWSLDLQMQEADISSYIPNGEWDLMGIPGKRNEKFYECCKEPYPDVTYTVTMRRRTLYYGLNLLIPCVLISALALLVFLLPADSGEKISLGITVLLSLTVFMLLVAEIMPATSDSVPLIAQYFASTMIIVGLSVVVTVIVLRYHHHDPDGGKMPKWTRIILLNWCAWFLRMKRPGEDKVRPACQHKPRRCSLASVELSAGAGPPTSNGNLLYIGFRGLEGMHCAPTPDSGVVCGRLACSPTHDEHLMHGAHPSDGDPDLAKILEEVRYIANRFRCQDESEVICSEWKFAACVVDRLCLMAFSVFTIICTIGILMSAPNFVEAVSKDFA
# Key:
# [1] = molecular target: Nicotinic acetylcholine receptor alpha9/alpha10 (Rattus norvegicus) (UniProt P43144+Q9JLB5); test: Antagonist activity at rat alpha9alpha10 nACh receptor expressed in Xenopus oocyte assessed as inhibition of acetylcholine-induced response at -70 mV holding potential by measuring ratio of IC50 by voltage-clamp based electrophysiological assay relative to GeXIVA; type: cell-based; conditions: filed as antagonist
# Rattus norvegicus = organism: Rattus norvegicus; test: Selectivity ratio of IC50 for rat alpha7 nACh receptor to IC50 for rat alpha9alpha10 nACh receptor
# [2] = molecular target: Neuronal acetylcholine receptor subunit alpha-7 (Rattus norvegicus) (UniProt Q05941); test: Antagonist activity at rat alpha7 nACh receptor expressed in Xenopus oocyte assessed as inhibition of acetylcholine-induced response at -70 mV holding potential by measuring ratio of IC50 by voltage-clamp based electrophysiological assay relative to GeXIVA; conditions: filed as antagonist
Structure (SMILES),Ratio IC50 [1],Ratio IC50 (Rattus norvegicus),Ratio IC50 [2]
CC[C@H](C)[C@@H]1NC(=O)[C@H](CCCNC(=N)N)NC(=O)[C@H](CCCNC(=N)N)NC(=O)[C@@H]2CSSC[C@H](NC(=O)[C@H](Cc3ccc(O)cc3)NC(=O)[C@H](CCCNC(=N)N)NC(=O)CNC(=O)[C@H](CO)NC(=O)[C@H](CO)NC(=O)[C@H](CCCNC(=N)N)NC(=O)[C@@H](NC(=O)[C@@H](N)[C@@H](C)O)CSSC[C@@H](C(=O)N[C@H](C(=O)O)C(C)C)NC(=O)[C@H](C)NC(=O)[C@H](CC(=O)O)NC(=O)[C@H]([C@@H](C)O)NC1=O)C(=O)N[C@@H](CCCNC(=N)N)C(=O)N[C@@H](CO)C(=O)N1CCC[C@H]1C(=O)N[C@@H](Cc1ccc(O)cc1)C(=O)N[C@@H](CC(=O)O)C(=O)N[C@@H](CCCNC(=N)N)C(=O)N[C@@H](CCCNC(=N)N)C(=O)N[C@@H](CCCNC(=N)N)C(=O)N[C@@H](CCCNC(=N)N)C(=O)N[C@@H](C)C(=O)N2,2.3,201,2.7
CC[C@H](C)[C@@H]1NC(=O)[C@H](CCCNC(=N)N)NC(=O)[C@H](CCCNC(=N)N)NC(=O)[C@@H](NC(=O)[C@H](Cc2ccc(O)cc2)NC(=O)[C@H](CCCNC(=N)N)NC(=O)[C@H](CCCNC(=N)N)NC(=O)[C@H](CCCNC(=N)N)NC(=O)[C@H](CCCNC(=N)N)NC(=O)[C@H](CC(=O)O)NC(=O)[C@H](Cc2ccc(O)cc2)NC(=O)[C@@H]2CCCN2C(=O)[C@H](C)NC(=O)[C@H](CCCNC(=N)N)NC(=O)[C@@H]2CSSC[C@H](NC(=O)[C@@H](N)[C@@H](C)O)C(=O)N[C@@H](CCCNC(=N)N)C(=O)N[C@@H](CO)C(=O)N[C@@H](CO)C(=O)NCC(=O)N[C@@H](CCCNC(=N)N)C(=O)N[C@@H](Cc3ccc(O)cc3)C(=O)N2)CSSC[C@@H](C(=O)N[C@H](C(=O)O)C(C)C)NC(=O)[C@H](C)NC(=O)[C@H](CC(=O)O)NC(=O)[C@H]([C@@H](C)O)NC1=O,2.2,86.5,3.5
CC[C@H](C)[C@@H]1NC(=O)[C@H](CCCNC(=N)N)NC(=O)[C@H](CCCNC(=N)N)NC(=O)[C@@H]2CSSC[C@H](NC(=O)[C@H](Cc3ccc(O)cc3)NC(=O)[C@H](CCCNC(=N)N)NC(=O)CNC(=O)[C@H](CO)NC(=O)[C@H](CO)NC(=O)[C@H](C)NC(=O)[C@@H](NC(=O)[C@@H](N)[C@@H](C)O)CSSC[C@@H](C(=O)N[C@H](C(=O)O)C(C)C)NC(=O)[C@H](C)NC(=O)[C@H](CC(=O)O)NC(=O)[C@H]([C@@H](C)O)NC1=O)C(=O)N[C@@H](CCCNC(=N)N)C(=O)N[C@@H](CO)C(=O)N1CCC[C@H]1C(=O)N[C@@H](Cc1ccc(O)cc1)C(=O)N[C@@H](CC(=O)O)C(=O)N[C@@H](CCCNC(=N)N)C(=O)N[C@@H](CCCNC(=N)N)C(=O)N[C@@H](CCCNC(=N)N)C(=O)N[C@@H](CCCNC(=N)N)C(=O)N[C@@H](Cc1ccc(O)cc1)C(=O)N2,2.3,245,3.2
CC[C@H](C)[C@@H]1NC(=O)[C@H](C)NC(=O)[C@H](CCCNC(=N)N)NC(=O)[C@@H](NC(=O)[C@H](Cc2ccc(O)cc2)NC(=O)[C@H](CCCNC(=N)N)NC(=O)[C@H](CCCNC(=N)N)NC(=O)[C@H](CCCNC(=N)N)NC(=O)[C@H](CCCNC(=N)N)NC(=O)[C@H](CC(=O)O)NC(=O)[C@H](Cc2ccc(O)cc2)NC(=O)[C@@H]2CCCN2C(=O)[C@H](CO)NC(=O)[C@H](CCCNC(=N)N)NC(=O)[C@@H]2CSSC[C@H](NC(=O)[C@@H](N)[C@@H](C)O)C(=O)N[C@@H](CCCNC(=N)N)C(=O)N[C@@H](CO)C(=O)N[C@@H](CO)C(=O)NCC(=O)N[C@@H](CCCNC(=N)N)C(=O)N[C@@H](Cc3ccc(O)cc3)C(=O)N2)CSSC[C@@H](C(=O)N[C@H](C(=O)O)C(C)C)NC(=O)[C@H](C)NC(=O)[C@H](CC(=O)O)NC(=O)[C@H]([C@@H](C)O)NC1=O,4.5,70,5.8
CC[C@H](C)[C@@H]1NC(=O)[C@H](CCCNC(=N)N)NC(=O)[C@H](CCCNC(=N)N)NC(=O)[C@@H]2CSSC[C@H](NC(=O)[C@H](C)NC(=O)[C@H](CCCNC(=N)N)NC(=O)CNC(=O)[C@H](CO)NC(=O)[C@H](CO)NC(=O)[C@H](CCCNC(=N)N)NC(=O)[C@@H](NC(=O)[C@@H](N)[C@@H](C)O)CSSC[C@@H](C(=O)N[C@H](C(=O)O)C(C)C)NC(=O)[C@H](C)NC(=O)[C@H](CC(=O)O)NC(=O)[C@H]([C@@H](C)O)NC1=O)C(=O)N[C@@H](CCCNC(=N)N)C(=O)N[C@@H](CO)C(=O)N1CCC[C@H]1C(=O)N[C@@H](Cc1ccc(O)cc1)C(=O)N[C@@H](CC(=O)O)C(=O)N[C@@H](CCCNC(=N)N)C(=O)N[C@@H](CCCNC(=N)N)C(=O)N[C@@H](CCCNC(=N)N)C(=O)N[C@@H](CCCNC(=N)N)C(=O)N[C@@H](Cc1ccc(O)cc1)C(=O)N2,7.5,61.1,2.6
CC[C@H](C)[C@@H]1NC(=O)[C@H](CCCNC(=N)N)NC(=O)[C@H](CCCNC(=N)N)NC(=O)[C@@H](NC(=O)[C@H](Cc2ccc(O)cc2)NC(=O)[C@H](CCCNC(=N)N)NC(=O)[C@H](CCCNC(=N)N)NC(=O)[C@H](CCCNC(=N)N)NC(=O)[C@H](CCCNC(=N)N)NC(=O)[C@H](CC(=O)O)NC(=O)[C@H](Cc2ccc(O)cc2)NC(=O)[C@@H]2CCCN2C(=O)[C@H](CO)NC(=O)[C@H](CCCNC(=N)N)NC(=O)[C@@H]2CSSC[C@H](NC(=O)[C@@H](N)[C@@H](C)O)C(=O)N[C@@H](CCCNC(=N)N)C(=O)N[C@@H](CO)C(=O)N[C@@H](C)C(=O)NCC(=O)N[C@@H](CCCNC(=N)N)C(=O)N[C@@H](Cc3ccc(O)cc3)C(=O)N2)CSSC[C@@H](C(=O)N[C@H](C(=O)O)C(C)C)NC(=O)[C@H](C)NC(=O)[C@H](CC(=O)O)NC(=O)[C@H]([C@@H](C)O)NC1=O,2.2,122,5
CC[C@H](C)[C@@H]1NC(=O)[C@H](CCCNC(=N)N)NC(=O)[C@H](CCCNC(=N)N)NC(=O)[C@@H]2CSSC[C@H](NC(=O)[C@H](Cc3ccc(O)cc3)NC(=O)[C@H](CCCNC(=N)N)NC(=O)CNC(=O)[C@H](CO)NC(=O)[C@H](CO)NC(=O)[C@H](CCCNC(=N)N)NC(=O)[C@@H](NC(=O)[C@@H](N)[C@@H](C)O)CSSC[C@@H](C(=O)N[C@H](C(=O)O)C(C)C)NC(=O)[C@H](C)NC(=O)[C@H](CC(=O)O)NC(=O)[C@H]([C@@H](C)O)NC1=O)C(=O)N[C@@H](CCCNC(=N)N)C(=O)N[C@@H](CO)C(=O)N[C@@H](C)C(=O)N[C@@H](Cc1ccc(O)cc1)C(=O)N[C@@H](CC(=O)O)C(=O)N[C@@H](CCCNC(=N)N)C(=O)N[C@@H](CCCNC(=N)N)C(=O)N[C@@H](CCCNC(=N)N)C(=O)N[C@@H](CCCNC(=N)N)C(=O)N[C@@H](Cc1ccc(O)cc1)C(=O)N2,0.6,178,0.6
CC[C@H](C)[C@@H]1NC(=O)[C@H](CCCNC(=N)N)NC(=O)[C@H](CCCNC(=N)N)NC(=O)[C@@H](NC(=O)[C@H](Cc2ccc(O)cc2)NC(=O)[C@H](CCCNC(=N)N)NC(=O)[C@H](CCCNC(=N)N)NC(=O)[C@H](CCCNC(=N)N)NC(=O)[C@H](CCCNC(=N)N)NC(=O)[C@H](CC(=O)O)NC(=O)[C@H](Cc2ccc(O)cc2)NC(=O)[C@@H]2CCCN2C(=O)[C@@H](CO)NC(=O)[C@H](C)NC(=O)[C@@H]2CSSC[C@H](NC(=O)[C@@H](N)[C@@H](C)O)C(=O)N[C@@H](CCCNC(=N)N)C(=O)N[C@@H](CO)C(=O)N[C@@H](CO)C(=O)NCC(=O)N[C@@H](CCCNC(=N)N)C(=O)N[C@@H](Cc3ccc(O)cc3)C(=O)N2)CSSC[C@@H](C(=O)N[C@H](C(=O)O)C(C)C)NC(=O)[C@H](C)NC(=O)[C@H](CC(=O)O)NC(=O)[C@H]([C@@H](C)O)NC1=O,5.9,43.4,4.7
CC[C@H](C)[C@@H]1NC(=O)[C@H](CCCNC(=N)N)NC(=O)[C@H](CCCNC(=N)N)NC(=O)[C@@H](NC(=O)[C@H](Cc2ccc(O)cc2)NC(=O)[C@H](CCCNC(=N)N)NC(=O)[C@H](C)NC(=O)[C@H](CCCNC(=N)N)NC(=O)[C@H](CCCNC(=N)N)NC(=O)[C@H](CC(=O)O)NC(=O)[C@H](Cc2ccc(O)cc2)NC(=O)[C@@H]2CCCN2C(=O)[C@H](CO)NC(=O)[C@H](CCCNC(=N)N)NC(=O)[C@@H]2CSSC[C@H](NC(=O)[C@@H](N)[C@@H](C)O)C(=O)N[C@@H](CCCNC(=N)N)C(=O)N[C@@H](CO)C(=O)N[C@@H](CO)C(=O)NCC(=O)N[C@@H](CCCNC(=N)N)C(=O)N[C@@H](Cc3ccc(O)cc3)C(=O)N2)CSSC[C@@H](C(=O)N[C@H](C(=O)O)C(C)C)NC(=O)[C@H](C)NC(=O)[C@H](CC(=O)O)NC(=O)[C@H]([C@@H](C)O)NC1=O,2.2,208,8.6
CC[C@H](C)[C@@H]1NC(=O)[C@H](CCCNC(=N)N)NC(=O)[C@H](CCCNC(=N)N)NC(=O)[C@@H]2CSSC[C@H](NC(=O)[C@H](Cc3ccc(O)cc3)NC(=O)[C@H](CCCNC(=N)N)NC(=O)CNC(=O)[C@H](CO)NC(=O)[C@H](CO)NC(=O)[C@H](CCCNC(=N)N)NC(=O)[C@@H](NC(=O)[C@H](C)N)CSSC[C@@H](C(=O)N[C@H](C(=O)O)C(C)C)NC(=O)[C@H](C)NC(=O)[C@H](CC(=O)O)NC(=O)[C@H]([C@@H](C)O)NC1=O)C(=O)N[C@@H](CCCNC(=N)N)C(=O)N[C@@H](CO)C(=O)N1CCC[C@H]1C(=O)N[C@@H](Cc1ccc(O)cc1)C(=O)N[C@@H](CC(=O)O)C(=O)N[C@@H](CCCNC(=N)N)C(=O)N[C@@H](CCCNC(=N)N)C(=O)N[C@@H](CCCNC(=N)N)C(=O)N[C@@H](CCCNC(=N)N)C(=O)N[C@@H](Cc1ccc(O)cc1)C(=O)N2,0.9,175,0.9
